Results of unrelated studies side by side (data: NIAID ChemDB).

Shared fields: enzyme or target tests

Conditions beyond the fields shown may differ between rows. Blank or dashed fields: not listed here. ICn: concentration for n% inhibition. Percent inhibition refers to the dose given; in toxicity tests it is the harm to the cells. Two numbers with a dash give a range or band.

structure | target | strain | read by | measure | tested at | species | result
COc1ccc2ccccc2c1/C=N/NC(=O)c1cc(O)c(O)c(O)c1 | RNase H | gtD | RNase H / substrate cleavage | inhibition | 10 µM | Hepatitis B virus | >43%
O=C(Nc1ccc2cn[nH]c2c1)c1cc(NCCCn2ccnc2)c(F)cc1F | Reverse transcriptase |  |  | IC50 |  | Hepatitis B virus | 0.1–1 µg/mL
O=C(N[C@H](C(=O)O)c1ccc(O)cc1)c1cnn2c(C3CCCCC3)c(-c3ccc(F)cc3)cnc12 | RNA-dependent RNA polymerase |  |  | IC50 |  | Hepatitis C virus | <1 µM
c1ccc(COc2ccccc2-c2nc3ccccc3[nH]2)cc1 | NS5B RdRp activity | 1b |  | inhibition | 100 µM | Hepatitis C virus | 0%
c1cc(OCc2cccs2)cc(-c2cnc3c(-c4nn[nH]n4)cnn3c2C2CCCCC2)c1 | RNA-dependent RNA polymerase |  |  | IC50 |  | Hepatitis C virus | 1–10 µM
CCC[C@]1(CC(=O)O)OCCc2c1[nH]c1c(C)ccc(C#N)c21 | NS5B polymerase | 207-247 genotype 1A |  | IC50 |  | Hepatitis C virus | 1 µM
O=c1c(O)c(-c2ccc(O)c(O)c2)oc2cc(O)c(O)c(O)c12 | RdRp | genotype 2a | nucleotide incorporation | IC50 |  | Hepatitis C virus | 20.5 µM
NCc1ccc(-c2ccc(Cc3cc(=O)n(O)c4ncccc34)cc2)cc1 | RNase H | gtH | RNase H / substrate cleavage | inhibition | 10 µM | Hepatitis B virus | <24%
CC(=O)N[C@@H](CC(=O)O)C(=O)N[C@H](Cc1ccccc1)C(=O)N[C@H](C(=O)N[C@@H](CCC(=O)O)C(=O)N[C@@H](CC1CCCCC1)C(=O)N[C@@H](CS)C(=O)C(=O)O)C(c1ccccc1)c1ccccc1 | NS3/NS4A serine protease |  |  | Ki |  | Hepatitis C virus | 17 µM
COc1ccc2cc(OC[C@@H]3C[C@H]4C(=O)N(C)CCCC/C=C/[C@@H]5C[C@@]5(C(=O)O)NC(=O)N34)c(-c3nc(C(C)C)cs3)nc2c1C | Nonstructural protein 3/4A |  | FRET | IC50 |  | Hepatitis C virus | <1 µM
c1ccc(-c2ccc(-c3nc4ccccc4[nH]3)cc2)nc1 | NS5B RdRp activity | 1b |  | inhibition | 100 µM | Hepatitis C virus | 6.2%
COC(=O)c1ccc(COc2ccc(-c3cnc4c(-c5nn[nH]n5)cnn4c3C3CCCCC3)cc2)cc1 | RNA-dependent RNA polymerase |  |  | IC50 |  | Hepatitis C virus | <1 µM
CC(=O)N[C@@H](CC(=O)O)C(=O)N[C@H](CC(C(=O)O)C(=O)O)C(=O)N[C@@H](CC1CCCCC1)C(=O)N[C@@H](CCC(=O)O)C(=O)N[C@@H](CC1CCCCC1)C(=O)N[C@@H](CS)C(=O)C(=O)O | NS3/NS4A serine protease |  |  | Ki |  | Hepatitis C virus | 0.0003 µM
Nc1nc2c(ncn2CCC(CO)COP(=O)(O)OP(=O)(O)OP(=O)(O)O)c(=O)[nH]1 | DNA polymerase |  |  | Ki |  | Hepatitis B virus | 0.04 µM
CCn1c(-c2ccccc2OCc2ccccc2)nc2ccccc21 | NS5B RdRp activity | 1b |  | inhibition | 100 µM | Hepatitis C virus | 22.4%
C[C@H](Cc1ccc(O)c(O)c1)[C@@H](C)Cc1ccc(O)c(O)c1 | RNase H | gtH | RNase H / substrate cleavage | inhibition | 10 µM | Hepatitis B virus | >43%
CSCC[C@H](NC(=O)[C@H](CCC(=O)O)NC(=O)[C@@H](N)CC(=O)O)C(=O)N[C@@H](CCC(=O)O)C(=O)N[C@@H](CCC(=O)O)C(=O)N[C@@H](CS)C(=O)O | NS3/NS4A serine protease |  |  | Ki |  | Hepatitis C virus | 0.6 µM
c1ccc2[nH]c(-c3ccncc3)nc2c1 | NS5B RdRp activity | 1b |  | inhibition | 100 µM | Hepatitis C virus | 7.5%
Nc1nc2c(ncn2CC[C@@H](CO)COP(=O)(O)OP(=O)(O)OP(=O)(O)O)c(=O)[nH]1 | DNA polymerase |  |  | Ki |  | Hepatitis B virus | 0.04 µM
O=C(Nc1ccc2cn[nH]c2c1)c1cc(NCCO)c(F)cc1F | Reverse transcriptase |  |  | IC50 |  | Hepatitis B virus | 0.1–1 µg/mL
NC(=O)c1c(N)sc2c1CCCCC2 | RNase H | gtD | RNase H / substrate cleavage | inhibition | 10 µM | Hepatitis B virus | >43%
NS(=O)(=O)c1ccc(CCNc2cc(C(=O)Nc3ccc4cn[nH]c4c3)c(F)cc2F)cc1 | Reverse transcriptase |  |  | inhibition | 0.1 µg/mL | Hepatitis B virus | 51%
CS(=O)(=O)c1cccc(-c2ccc(-c3cnc4c(-c5nn[nH]n5)cnn4c3C3CCCCC3)cc2)c1 | RNA-dependent RNA polymerase |  |  | IC50 |  | Hepatitis C virus | 1–10 µM
O=C(Nc1ccc2[nH]ncc2c1)c1cc(NCCO)c(F)cc1F | Reverse transcriptase |  |  | inhibition | 0.1 µg/mL | Hepatitis B virus | 52%
COc1ccc2c(O[C@@H]3CC4C(=O)NC5C(/C=C\CCCCC[C@H](NC(=O)OC6CCCC6)C(=O)N4C3)C5C(=O)O)cc(-c3csc(NC(C)C)n3)nc2c1 | NS3/NS4A serine protease |  |  | Ki |  | Hepatitis C virus | 0.0003–0.00066 µM
CC(=O)N[C@@H](CC(=O)O)C(=O)N[C@@H](Cc1cc2ccccc2[nH]1)C(=O)N[C@H](C(=O)N[C@@H](CCC(=O)O)C(=O)N[C@@H](CC1CCCCC1)C(=O)N[C@@H](CS)C(=O)C(=O)O)C(c1ccccc1)c1ccccc1 | NS3/NS4A serine protease |  |  | Ki |  | Hepatitis C virus | 330 µM
C[C@H](Cn1cnc2c(N)ncnc21)OCP(=O)(O)O | HBeAg | HepG 2.2.15 | ELISA | IC50 |  | Hepatitis B virus | >1740 µM
CC(Cc1ccccn1)Nc1cc(C(=O)Nc2ccc3cn[nH]c3c2)c(F)cc1F | Reverse transcriptase |  |  | IC50 |  | Hepatitis B virus | 0.1–1 µg/mL
CC(=O)N[C@@H](CC(=O)O)C(=O)N[C@H](CC(C(=O)O)C(=O)O)C(=O)N[C@H](C(=O)N[C@@H](CCC(=O)O)C(=O)N[C@@H](Cc1c[nH]c2ccccc12)C(=O)N[C@@H](CS)C(=O)C(=O)O)C(c1ccccc1)c1ccccc1 | NS3/NS4A serine protease |  |  | Ki |  | Hepatitis C virus | 0.00003 µM
Cc1cnc2c(-c3nn[nH]n3)cnn2c1C1CCCCC1 | RNA-dependent RNA polymerase |  |  | IC50 |  | Hepatitis C virus | >10 µM
CCCN(NC(=O)[C@@H]1C[C@@H](OCc2ccccc2)CN1C(=O)[C@@H](NC(=O)[C@H]([C@@H](C)CC)N(O)C(=O)[C@@H](CCC(=O)O)NC(=O)[C@H](CC(=O)O)NC(C)=O)C(C)C)C(=O)NCc1ccc2c(c1)OCO2 | NS3 protease/NS4A cofactor |  |  | IC50 |  | Hepatitis C virus | 0.5 µM
O=C(N[C@@H](C(=O)O)C1CCCCC1)c1cnn2c(C3CCCCC3)c(-c3ccc(F)cc3)cnc12 | RNA-dependent RNA polymerase |  |  | IC50 |  | Hepatitis C virus | <1 µM
CCCN(NC(=O)[C@@H]1C[C@@H](OCc2ccccc2)CN1C(=O)[C@@H](NC(=O)[C@H]([C@@H](C)CC)N(S)C(=O)[C@@H](CCC(=O)O)NC(=O)[C@H](CC(=O)O)NC(C)=O)C(C)C)C(=O)NCc1ccccc1 | NS3 protease/NS4A cofactor |  |  | IC50 |  | Hepatitis C virus | 5 µM
FC(F)(F)c1cccc(Oc2cccc(-c3cnc4c(-c5nn[nH]n5)cnn4c3C3CCCCC3)c2)c1 | RNA-dependent RNA polymerase |  |  | IC50 |  | Hepatitis C virus | 1–10 µM
CCn1c(-c2ccc(C(C)C)cc2)nc2ccccc21 | NS5B RdRp activity | 1b |  | inhibition | 100 µM | Hepatitis C virus | 14.6%

Repeating the first 3 entries:

COc1ccc2ccccc2c1/C=N/NC(=O)c1cc(O)c(O)c(O)c1 ; target: RNase H ; strain: gtD ; read by: RNase H / substrate cleavage ; measure: inhibition ; tested at: 10 µM ; species: Hepatitis B virus ; result: >43%
O=C(Nc1ccc2cn[nH]c2c1)c1cc(NCCCn2ccnc2)c(F)cc1F ; target: Reverse transcriptase ; measure: IC50 ; species: Hepatitis B virus ; result: 0.1–1 µg/mL
O=C(N[C@H](C(=O)O)c1ccc(O)cc1)c1cnn2c(C3CCCCC3)c(-c3ccc(F)cc3)cnc12 ; target: RNA-dependent RNA polymerase ; measure: IC50 ; species: Hepatitis C virus ; result: <1 µM